Measurements taken from paper PMC3236198, “Chimeras of Escherichia coli and Mycobacterium tuberculosis Single-Stranded DNA Binding Proteins: Characterization and Function in Escherichia coli” (PLoS ONE, 2011).

B1: mβ1′β2_(ESWR) SSB (other)
chain: MASRGVNKVILVGNLGQDPELRFTPSGAAVANFTVASTESWRDRQTGEMKEQTEWHRVVLFGKLAEVASEYLRKGSQVYIEGQLRTRKWTDQSGQDRYTTEVVVNVGGTMQMLGGRQGGGAPAGGNIGGGQPQGGWGQPQQPQGGNQFSGGAQSRPQQSAPAAPSNEPPMDFDDDIPF
B2: mβ1′β2 SSB (other)
chain: MASRGVNKVILVGNLGQDPELRFTPSGAAVANFTVASTPRIYDRQTGEMKEQTEWHRVVLFGKLAEVASEYLRKGSQVYIEGQLRTRKWTDQSGQDRYTTEVVVNVGGTMQMLGGRQGGGAPAGGNIGGGQPQGGWGQPQQPQGGNQFSGGAQSRPQQSAPAAPSNEPPMDFDDDIPF

Experiments:
native gel or EMSA = biological target: the molecule itself; experiment: native gel or EMSA
SEC = biological target: the molecule itself; experiment: SEC

Protein	stoichiometry N (native gel or EMSA)	stoichiometry N (SEC)
B1	4	
B2		4
